Anti-infective test results gathered from many reports (values: NIAID ChemDB through PubChem).

Common to all: enzyme or target tests; organism: Hepatitis C virus; target: Nonstructural protein 5B; measure: inhibition

Percent inhibition refers to the dose given; in toxicity tests it is the harm to the cells.

structure,tested at,value
CCN(CC)CCN(CC)C(=O)CN1CCN(c2cc(Nc3ccc(N4CCOCC4)cc3)nc(SC)n2)CC1,1 µg/mL,75%
O=C(NCc1ccccn1)c1ccc(S(=O)(=O)Nc2ccc(N3CCOCC3)cc2)cc1,10 µg/mL,98%
O=C(Nc1ccc2[nH]ncc2c1)c1cc(NCCc2ccccn2)c(F)cc1F,10 µg/mL,75%
Cc1cnc(CNC(=O)c2ccc(S(=O)(=O)Nc3ccc(N4CCOCC4)cc3)cc2)cn1,0.1 µg/mL,62%
CSc1nc(Nc2ccc(N3CCOCC3)cc2)cc(N2CCN(CC(=O)N3CCC(CO)CC3)CC2)n1,1 µg/mL,58%
COc1nc(NCCO)nc(Nc2ccc3cn[nH]c3c2)n1,0.1 µg/mL,37%
CSc1nc(Nc2ccc(N3CCOCC3)cc2)cc(N2CCN(CC(=O)NCCO)CC2)n1,1 µg/mL,60%
CN(C)CCN(Cc1ccccc1)C(=O)c1ccc(S(=O)(=O)Nc2ccc(N3CCOCC3)cc2)cc1,0.1 µg/mL,48%
O=C(Nc1ccc2cn[nH]c2c1)c1cc(NCCO)c(F)cc1F,10 µg/mL,50%
COc1nc(Nc2ccc3cn[nH]c3c2)nc(-n2ccnc2)n1,10 µg/mL,40%
CSc1nc(Nc2ccc(N3CCOCC3)cc2)cc(N2CCN(CC(=O)NCCN3CCCC3)CC2)n1,1 µg/mL,72%
O=C(O)c1ccc(S(=O)(=O)Nc2ccc(N3CCOCC3)cc2)cc1,10 µg/mL,93%
O=C(Nc1ccc2[nH]ncc2c1)c1cc(NCCN2CCCC2)c(F)cc1F,1 µg/mL,40%
CSc1nc(Nc2ccc(N3CCOCC3)cc2)cc(N2CCN(CC(=O)N3CCC(N4CCOCC4)CC3)CC2)n1,1 µg/mL,69%
CN(C)CCNc1cc(C(=O)Nc2ccc3cn[nH]c3c2)c(F)cc1F,1 µg/mL,28%
COc1nc(Nc2ccc3cn[nH]c3c2)nc(N2CCC(O)CC2)n1,10 µg/mL,57%
NS(=O)(=O)c1ccc(CCNc2cc(C(=O)Nc3ccc4cn[nH]c4c3)c(F)cc2F)cc1,0.1 µg/mL,25%
CCN(CCO)C(=O)CN1CCN(c2cc(Nc3ccc(N4CCOCC4)cc3)nc(SC)n2)CC1,1 µg/mL,72%
O=C(Nc1ccc2[nH]ncc2c1)c1cc(NCCO)c(F)cc1F,10 µg/mL,23%
COC(=O)[C@@H]1CCCN1c1nc(Nc2ccc3cn[nH]c3c2)nc(OC)n1,0.1 µg/mL,0%
CSc1nc(Nc2ccc(N3CCOCC3)cc2)cc(N2CCN(CC(=O)N3CCSCC3)CC2)n1,1 µg/mL,67%

Conditions beyond the fields shown may differ between rows.